Data as given in publication PMC12138661, “Anti-Trypanosoma cruzi Effect of Fatty Acids from Porcelia macrocarpa Is Related to Interactions of Cell Membranes at Different Microdomains as Assessed Using Langmuir Monolayers” (ACS Omega, 2025).

Experiments:
[1] = test system: trypomastigote forms of T. cruzi (strain Y); assay: In vitro EC50 against trypomastigote forms of T. cruzi (resazurin viability); format: cell-based, Trypanosoma cruzi; conditions: selectivity index, NCTC CC50 vs trypomastigote EC50
Method: Trypomastigote forms (strain Y) of T. cruzi were obtained from Swiss mice (Mus musculus) previously infected intraperitoneally. The trypomastigote forms were used to infect LLC-MK2 cell cultures consisting of Macaca mulatta kidney epithelial cells (ATCC CCL 7) grown in RPMI-1640 medium containing 2% fetal bovine serum (FBS). The infected cell cultures were maintained in an incubator at 37 °C with 5% CO2, as previously described. , To evaluate the 50% effective concentration (EC50) against the trypomastigote forms of T. cruzi, mixture 1–10 was serially solubilized in the RPMI-1640 culture medium in 96-well plates. Subsequently, the trypomastigote forms of T. cruzi were added, at a concentration of 1 × 10^6 trypomastigotes per well. After an incubation period of 24 h at 37 °C with 5% CO2, to determine the viability of trypomastigotes, 20 μL of 10% Alamar Blue (resazurin) was added, followed by a new incubation of the plates for 20 h under the same conditions. At the end of the tests, the plates were read by absorption using a microplate spectrophotometer (Filter Max F5 Multi-Mode Microplate Reader) at 570 nm, as previously described. Benznidazole was used as a positive control, while cells not subjected to treatment were used as a negative control.

[2] = test system: amastigote forms of T. cruzi; assay: In vitro EC50 against intracellular amastigote forms of T. cruzi in peritoneal macrophages (Giemsa, infection index); format: cell-based, Trypanosoma cruzi; conditions: selectivity index, NCTC CC50 vs amastigote EC50
Method: After collecting and counting the cells, they were seeded in Nunc brand 16-well plates and incubated for 18 h at 37 °C in an incubator containing 5% CO2. Nonadherent cells were then removed by washing with RPMI-1640 medium. Subsequently, the cells were infected with trypomastigotes at a ratio of 10:1 per well during an incubation period of 4 h. The mixture of compounds, previously diluted in series, was added and incubated for 48 h to determine the EC50 against amastigotes. After the incubation phase, the glass slides were fixed using MeOH for 5 min and then stained with Giemsa for 7 min. This procedure allowed for observation under a light microscope. The infection index was obtained in 200 macrophages/slide according to the formula: infected macrophages × number of amastigotes/total number of macrophages. Benznidazole was used as a standard drug. ,

`O=C(Cn1ccnc1[N+](=O)[O-])NCc1ccccc1` [benznidazole] was tested, and the “SI TRYPO” value [1] was greater than 51.2, the “SI TRYPO” value ([1]; listed as Benznidazole) was greater than 51 and the “SI AMA” value [2] was greater than 210.5. The “SI AMA” value ([2]; listed as Benznidazole) was greater than 210.
